Reference: article doi:10.1101/2024.06.08.598097

Biological target: FadD1 (Pseudomonas aeruginosa PAO1) (UniProt Q9HYU4)
Assay: EMSA
Conditions: residues 1-562; probe letters rebuilt from the primers and the genome

Sequence: ATCATCCTGAGCATCTCCGAGAGCACGGTGAACTTCCACCACAAGAACATCCAGAAGAAGTTCGACGCGCCGAACAAGACGCTGGCTGCCGCCTACGCCGCGGCGCTGGGTCTCATCTGAAGCGCAGGGCGCGCCGGTCGGCGCGCCCTACCAGATCTGGCAGGTTGCCTGCCGTTCATCCTCCTTTAGTCTTCCCCCTCATGTGTGTGCTGGTATGTCCTCCGACTGAGAGGGCCCAGGAGTATCAGGGTAGGGATGCCGCCTTTTTTTCTCGGCCGGCACGACACGGGGACTTGGTCATGATCGAATTGCTCTCTGAATCGCTGGAA (double strand) [rhlI promoter]
- binding result: no binding

No signal at the amounts used counts as a negative.
